This is an account of results in patent publication US11572377B2, “Nucleotide analogs” (The Regents of the University of California, priority 2015, dated 2023).

Bounds are passed on as bounds.

The series has as its system HPV-11. As to the kind of experiment: Low risk HPV assay: HPV origin plasmid replication in HEK 293 cells (qPCR). In kind it is cell-based, human papillomavirus. The note with it: CC50/EC50, HPV-11 in HEK-293 cells. The method, then: An origin-containing low risk or high risk HPV plasmid was co-transfected with homologous E1 and E2 protein expression vectors into HEK 293 cells. At 4 h post-transfection, cells were treated with test compound dilutions and then incubated for 48 h. HPV origin plasmid replication was detected after digestion with DpnI and exonuclease III to remove unreplicated transfected plasmids. Remaining replicated DNA was quantified by quantitative real time PCR (qPCR). In a parallel experiment in uninfected cells cytotoxicity was determined by trypan blue exclusion or CELLTITER-GLO® to find the concentration that reduced viable cell number by 50% (CC50). CC50 values were determined by trypan blue exclusion or CELLTITER-GLO® and the selectivity index calculated (Selectivity index=CC50/EC50). The low risk HPV tested was HPV-11, and the high-risk HPV tested was HPV-16 and HPV-18.

On to `Nc1ccn(C[C@@H](CO)OCP(=O)(O)O)c(=O)n1` [Cidofovir, cidofovir, reference compound], for which the SI50 was above 7.
As for `CCCCCCCCCCCCCCCCCCOCCOP(=O)(COCCn1cnc2c(=O)[nH]c(N)nc21)OCc1ccc(OC)c(Cl)c1` (centres unmarked) [ODE-(3-Cl-4-OMe-Bn)-PMEG], the SI50 turned out to be 12.
As for `CCCCCCCCCCCCCCCCCCOCCOP(=O)(COCCn1cnc2c(=O)[nH]c(N)nc21)OCc1cccc(Cl)c1` (centres unmarked) [ODE-(3-Cl-Bn)-PMEG], the SI50 is 5.
On to `CCCCCCCCCCCCCCCCCCOCCOP(=O)(COCCn1cnc2c(=O)[nH]c(N)nc21)OCc1ccc(OC)c(F)c1` (centres unmarked) [ODE-(3-F-4-OMe-Bn)-PMEG], for which the SI50 was found to be 79.
`CCCCCCCCCCCCCCCCCCOCCOP(=O)(COCCn1cnc2c(=O)[nH]c(N)nc21)OCc1cccc(F)c1` (centres unmarked) [ODE-(3-F-Bn)-PMEG] registered an SI50 of 7.
Under `CCCCCCCCCCCCCCCCCCOCCOP(=O)(COCCn1cnc2c(=O)[nH]c(N)nc21)OCc1ccc(C)cc1` (centres unmarked) [ODE-(4-Me-Bn)-PMEG] stands 26.
In turn, `CCOC(=O)[C@H](C)NP(=O)(COCCn1cnc2c(=O)[nH]c(N)nc21)N[C@@H](C)C(=O)OCC` [PMEG bisamidate, 9-[2-(bis-(ethyloxy-L-alaninyl)-phosphonomethoxy)ethyl]guanine] returned an SI50 above 20.
With `CCOC(=O)[C@H](C)NP(=O)(COCCn1cnc2c(=O)[nH]c(N)nc21)Oc1ccccc1` (some centres unmarked) [PMEG phenoxy amidate], the SI50 is above 13.
